This passage reports OD (450 nm) results from patent publication US20240301038A1.

The experiment addresses SARS-CoV-2 native Spike (S) trimer (Acro Biosystems) (SARS-CoV-2) (UniProt P0DTC2). As to the kind of experiment: ELISA on spike trimer. On the technique in general: An ELISA detects its analyte on a solid surface through an enzyme-linked reagent.

Regarding AB-009649 (antibody), the OD (450 nm) was 0.155 OD (450 nm).
